A mixed list of measured activities; the numbers were collected in NIAID ChemDB.

Common to all: target-level tests; species: HIV-1; protein: Reverse transcriptase; endpoint: IC50

Lines come from different laboratories, so protocols vary. Two numbers with a dash give a range or band. ICn: concentration for n% inhibition. An empty or dashed field is not shown.

structure,strain or isolate,mutations,method,conditions,result
Cc1occc1C(=S)Nc1ccc(Cl)c(SCC(=O)OC(C)(C)C)c1,,,nucleotide incorporation,,1.658 µM
N#CC1C=Cc2ccccc2N1C(=O)Oc1ccccc1,,,nucleotide incorporation,,>50 µM
COc1ccc2c(c1)N(C(=O)OC(C)C)[C@@H](CSC)C(=S)N2,,RT-W229F,radiometric,,0.0162 µM
Cn1cncc1CNC(=O)c1[nH]c2ccc(Cl)cc2c1S(=O)(=O)c1ccccc1,,,nucleotide incorporation,,0.003–0.035 µM
CCCOC(=O)N1c2ccc([N+](=O)[O-])cc2C=CC1C#N,,,nucleotide incorporation,,25.8 µM
CC[C@H]1C(=O)Nc2ccc(F)cc2N1C(=O)OC(C)C,,RT-W229Y,radiometric,,0.19 µM
CC(C)Nc1cccnc1N1CCN(C(=O)c2cc3cc(NC(=O)CN)ccc3[nH]2)CC1,,,nucleotide incorporation,,<100 µM
C=C1C(=O)O[C@@H]2C[C@@H]3[C@]4(CC[C@]5(C)[C@@H]([C@H](C)CCC=C(C)C)CC[C@@]35C)C[C@]4(CCC(=O)OC)[C@H]12,,,,,>9.9 µg/mL
CCOc1ccccc1N1CCN(C(=O)c2cc3cc(OC)ccc3[nH]2)CC1,,,nucleotide incorporation,,<100 µM
CCN1c2ncc(CCOc3ccc(-c4ccc(C)[n+]([O-])c4)cc3C)cc2C(=O)N(C)c2cccnc21,IIIB,RT-K103N Y181C,nucleotide incorporation / radiometric,,<0.05 µM
Nc1ncnc2c1ncn2[C@H]1CC[C@@H](COP(=O)(O)OP(=O)(O)OP(=O)(O)O)O1,,RT-F116Y,nucleotide incorporation / radiometric,,5.5 µM
Cn1ccnc1CNC(=O)c1[nH]c2ccc(Cl)cc2c1S(=O)(=O)c1ccccc1,,,nucleotide incorporation,,0.003–0.035 µM
CCNc1cccnc1N1CCN(C(=O)c2ccc3ccccc3c2)CC1,,,nucleotide incorporation,,<100 µM
N#CC1C=Cc2ccccc2N1S(=O)(=O)S(=O)(=O)c1ccccc1,,,nucleotide incorporation,,>50 µM
CC(C)Nc1cccnc1N(C)CCCCN(C)C(=O)c1cc2ccccc2[nH]1,,,nucleotide incorporation,,<100 µM
CCCCCC/C=C/CCCCCCCc1cccc(O)c1C(=O)O,,,RT activity / RNase H,,33.7 µM
CCN1c2ncc(CCOc3ccc(C(=O)NCc4cc[n+]([O-])cc4)cc3C)cc2C(=O)N(C)c2cccnc21,IIIB,RT-K103N Y181C,nucleotide incorporation / radiometric,,0.05–0.1 µM
O=C(NCc1ccncc1)c1[nH]c2ccc(Cl)cc2c1S(=O)c1ccccc1,,,nucleotide incorporation,,0.003–0.035 µM
CCN1c2ncc(CCOc3ccc(-c4cncc(C(=O)O)c4)cc3C)cc2C(=O)N(C)c2cccnc21,IIIB,RT-K103N Y181C,nucleotide incorporation / radiometric,,<0.05 µM
N#CC1C=Cc2ccccc2N1C(=O)OC1CCCC1,,,nucleotide incorporation,,>50 µM
CCOCn1c(Cc2ccccc2)c(C(C)C)c(=O)[nH]c1=O,,RT-W229Y,radiometric,,1.03 µM
COc1ccc2c(c1)C=CC(C#N)N2C(=O)c1ccccc1,,,nucleotide incorporation,,>50 µM
CC(C)Nc1cccnc1N1CCCN(C(=O)c2cc3ccccc3[nH]2)CC1,,,nucleotide incorporation,,<100 µM
Nc1cc(OC[C@H]2CC[C@@H](COP(=O)([O-])OP(=O)([O-])OP(=O)([O-])O)O2)nc(N)n1,,,nucleotide incorporation / radiometric,Mn2+,352 µM
Nc1nc2c(ncn2[C@H]2CC[C@@H](COP(=O)(O)OP(=O)(O)OP(=O)(O)O)O2)c(=O)[nH]1,,,radiometric,,0.42 µM
CC(C)(C)Nc1nccnc1N1CCN(C(=O)c2cc3cc(F)ccc3[nH]2)CC1,,,nucleotide incorporation,,<100 µM
CCN1c2ncc(CCOc3ccc(-c4cscn4)cc3)cc2C(=O)N(C)c2cccnc21,IIIB,RT-K103N Y181C,nucleotide incorporation / radiometric,,>0.1 µM
COc1ccc2c(c1)C=CC(C#N)N2C(=O)c1ccco1,,,nucleotide incorporation,,>50 µM
COc1cc(O)c2c(=O)cc(-c3cc(O)c(OC)c(OC)c3)oc2c1,,,,,>5.9 µg/mL
CC(C)Nc1cccnc1N1CCN(C(=O)c2cc3cc([N+](=O)[O-])ccc3[nH]2)CC1,,,nucleotide incorporation,,<100 µM
CCCCCCCCCCCCCCCc1cccc(O)c1,,,RT activity / RNase H,,>200 µM
COC(=O)N1c2ccc(OC)cc2C=CC1C#N,,,nucleotide incorporation,,>50 µM
C=C1OC(=O)CC[C@]23C[C@]24CC[C@]2(C)[C@@H]([C@H](C)CCC=C(C)C)CC[C@@]2(C)[C@@H]4CC[C@@H]13,,,,,>2.6 µg/mL
Nc1ccn([C@H]2CC[C@@H](COP(=O)(O)OP(=O)(O)OP(=O)(O)O)O2)c(=O)n1,,RT-A62V,nucleotide incorporation / radiometric,,0.21 µM
CCCCCC/C=C/CCCCCCCCCc1cccc(O)c1C(=O)O,,,RT activity / RNase H,,58.5 µM
C#CCOc1cc(NC(=S)c2ccoc2C)ccc1Cl,,,nucleotide incorporation,,3.039 µM
CCNc1cccnc1N1CCN(Cc2cc(C)c(O)c(C)c2)CC1,,,nucleotide incorporation,,<100 µM

For reference, 3 entries again:

{"structure": "Nc1cc(OC[C@H]2CC[C@@H](COP(=O)([O-])OP(=O)([O-])OP(=O)([O-])O)O2)nc(N)n1", "method": "nucleotide incorporation / radiometric", "conditions": "Mn2+", "result": "352 µM"}
{"structure": "COc1cc(O)c2c(=O)cc(-c3cc(O)c(OC)c(OC)c3)oc2c1", "result": ">5.9 µg/mL"}
{"structure": "Nc1nc2c(ncn2[C@H]2CC[C@@H](COP(=O)(O)OP(=O)(O)OP(=O)(O)O)O2)c(=O)[nH]1", "method": "radiometric", "result": "0.42 µM"}